In US12466849B2, “Anti-viral and anti-tumoral compounds” (YEDA RESEARCH AND DEVELOPMENT CO. LTD, priority 2020, dated 2025):

Test system: JC virus (JCV)
Settings: ratio CC50 / EC50

| Structure (SMILES) | SI50 |
| --- | --- |
| C[C@H](Cn1cnc2c(N)ncnc21)OCP(=O)(O)O [TNV, reference compound] | 1 |
| CCCCCCCCCCCCCCCCOCCCOP(=O)(O)OCC1=CC(O)C(n2ccc(=O)[nH]c2=O)O1 (centres unmarked) [AB23039] | 342 |
| CCCCCCCCCCCCCCCCOCCCOP(=O)(O)CO[C@H](CO)Cn1ccc(N)nc1=O [BCV, Brincidofovir] | 12 |
| CCCCCCCCCCCCCCCCOCCCOP(=O)(O)OCC1=C[C@H](O)[C@H](n2cnc3c(=O)[nH]c(N)nc32)O1 [AB23040] | 9 |
| Nc1ccn(C[C@@H](CO)OCP(=O)(O)O)c(=O)n1 [CDV, Cidofovir, reference compound] | >27 |
